Results of unrelated studies side by side (data: NIAID ChemDB).

Shared fields: tests in culture; species: Candida albicans

Blank or dashed fields: not listed here.

| compound | strain | method | read-out | value |
|---|---|---|---|---|
| Clc1ccc(C(c2cccc3ccccc23)n2ccnc2)s1 | 23 strains |  | MIC90 | 4 µg/mL |
| Cc1cc(-c2nn(CCO)c(C)c2N=O)no1 |  |  | MIC | >200 µM |
| Fc1ccc(C(c2ccc3ccccc3c2)n2ccnc2)cc1 | 23 strains |  | MIC90 | 8 µg/mL |
| C[C@H]1[C@H](O)[C@@H](C)/C=C/C=C/C=C/C=C/C=C/C=C/C=C/[C@H](O[C@@H]2O[C@H](C)[C@@H](O)[C@H](N)[C@@H]2O)C[C@@H]2O[C@](O)(C[C@@H](O)C[C@@H](O)CC[C@H](O)[C@@H](O)C[C@@H](O)CC(=O)O[C@H]1C)C[C@H](O)[C@H]2C(=O)O | R89-335 |  | MIC | 0.25 µg/mL |
| CCC(=O)/C=C1\Sc2ccccc2N1/C1=C/CCCCCCCCCC1 | ATCC 10231 |  | MIC | ≥100 µg/mL |
| O[C@](Cn1cncn1)(Cn1cnc(/C=C/c2ccc(OCC(F)(F)C(F)F)cc2)n1)c1ccc(F)cc1F | Isolate 08-57 |  | MIC | 0.5 µg/mL |
| C=CCSS(=O)CC=C | Clinical Isolate 3064 | broth dilution | MIC90 | 3.13 µg/mL |
| Nn1c(SCC(O)(Cn2cncn2)c2ccc(F)cc2F)nnc1-c1ccccc1 | IRFC 192 | broth dilution | MIC | >64 µg/mL |
| CC(=O)N1CCN(c2ccc(OC[C@H]3CO[C@](Cn4ccnc4)(c4ccc(Cl)cc4Cl)O3)cc2)CC1 | 10 isolates azole-resistant |  | MIC50 | 0.01 µg/mL |
| Nn1c(SCC(O)(Cn2cncn2)c2ccc(Cl)cc2Cl)nnc1-c1cccc(Br)c1 | IRFC 192 | broth dilution | MIC | >64 µg/mL |
| CC(=O)OCC1C=C(c2cccc(Cl)c2)C(=O)O1 | 16 isolates fluconazole-susceptible |  | MIC50 | 2 µg/mL |
| Cc1cc(-c2c(N=O)c(C)nn2C)no1 |  |  | MFC | 25 µM |
| CCCCCCCCOc1ccc(C(=O)NC2C[C@@H](O)[C@@H](O)NC(=O)C3[C@@H](O)[C@@H](C)CN3C(=O)C(C(C)O)NC(=O)C([C@H](O)[C@@H](O)c3ccc(O)cc3)NC(=O)C3C[C@@H](O)CN3C(=O)C(C(C)O)NC2=O)cc1 | MY1585 |  | MIC | 1 µg/mL |
| Cc1ccc(C(c2ccc3ccccc3c2)n2ccnc2)cc1 | 23 strains |  | MIC50 | 4 µg/mL |
| Nn1c(SCC(O)(Cn2cncn2)c2ccc(Cl)cc2Cl)nnc1-c1ccc(Cl)cc1Cl | IRFC 36 | broth dilution | MIC | 2 µg/mL |
| CO[C@@H]1C[C@H](C[C@@H](C)[C@@H]2CC(=O)[C@H](C)/C=C(\C)[C@@H](O)[C@@H](OC)C(=O)[C@H](C)C[C@H](C)/C=C/C=C/C=C(\C)[C@H](N(O)C(=O)N(C)C)C[C@@H]3CC[C@@H](C)[C@@](O)(O3)C(=O)C(=O)N3CCCC[C@H]3C(=O)O2)CC[C@H]1C(=O)ON(C)O | 10231 |  | MIC | 100 µg/mL |
| Cc1cc(-c2cc(C)n(CCO)n2)no1 |  |  | MIC | >200 µM |
| COc1ccc(-c2nnc(SCC(O)(Cn3cncn3)c3ccc(F)cc3F)n2N)cc1 | ATCC 18804 | broth dilution | MIC | >64 µg/mL |
| C/C=C/CN=C(N)NCCCCCCCN1CCCCCCCCN=C(N)NC1=O | 53T |  | MIC50 | 2.5 µM |
| CCCCCCC(Cn1ccnc1)c1c(Cl)cccc1Cl |  |  | MIC | 10 µg/mL |
| CO[C@@H]1C[C@H](C[C@@H](C)[C@@H]2CC(=O)[C@H](C)/C=C(\C)[C@@H](O)[C@@H](OC)C(=O)[C@H](C)C[C@H](C)/C=C/C=C/C=C(\C)[C@H](N(O)C(N)=O)C[C@@H]3CC[C@@H](C)[C@@](O)(O3)C(=O)C(=O)N3CCCC[C@H]3C(=O)O2)CC[C@H]1C(=O)ON(C)O | 579A |  | MIC | 100 µg/mL |
| COc1ccc2c(c1)S/C(=C\C(=O)C(C)C)N2C1=CCCCCC1 | ATCC 14053 |  | MIC | >100 µg/mL |
| COc1ccc(CN2C[C@H](OC[C@@]34C[C@@H]5[C@H](C)CC[C@H]5[C@@]5(C=O)C[C@@H]3CC(C(C)C)[C@@]45C(=O)O)O[C@H](C)C2)cc1 | CL-245 (fluconazole-resistant) |  | MIC | ≤0.001 µg/mL |
| Cc1ccc(-c2nnc(SCC(O)(Cn3cncn3)c3ccc(Cl)cc3Cl)n2N)cc1 | ATCC 18804 | broth dilution | MIC | >64 µg/mL |
| COc1ccc(C(c2ccc3ccccc3c2)n2ccnc2)cc1 | 23 strains |  | Mean MIC | 23 µg/mL |
| CCCCCCC(=O)/C=C1\Sc2ccccc2N1C1=CCCCCC1 | ATCC 14053 |  | MIC | >100 µg/mL |
| CCOc1cc2c(cc1F)n([O-])c(C)c(S(=O)(=O)c1ccccc1)[n+]2=O | Clinical isolate 24 |  | MIC | 15.6 µg/mL |
| C[C@@H](N1CCN(Cc2cn(Cc3ccc(F)cc3F)c3cc(N=[N+]=[N-])ccc23)CC1)[C@](O)(Cn1cncn1)c1ccc(F)cc1F | ATCC 90028 | resazurin | MIC80 | 0.125 µg/mL |
| CC(=O)/C=C1\Sc2ccccc2N1/C1=C/CCCCCCCCCC1 | ATCC 14053 |  | MIC | ≥100 µg/mL |
| OC[C@H]1CO[C@](Cn2ccnc2)(c2ccc(-c3ccccc3)cc2)O1 | 44 strains |  | MIC90 | >256 µg/mL |
| Cc1ccc(N=Nc2ccc(O)c(C[N+](C)(C)COC3CCCCCCC3)c2)cc1 |  |  | MBC | 70 µM |
| C=C(C)CN=C(N)NCCCCCCCN1CCCCCCCCN=C(N)NC1=O | ATCC 60193 |  | MIC50 | 20 µM |
| Clc1ccc(C(c2ccc3ccccc3c2)n2ccnc2)s1 | 23 strains |  | MIC50 | 2 µg/mL |
| CC(C)(O)c1cn(-c2ccc(Cl)cc2)nn1 | URM 3719 | broth dilution | MIC | 256 µg/mL |
| C[N+](C)(COCCC1CCCCC1)Cc1cc(N=Nc2ccc(Cl)cc2)ccc1O |  |  | MIC | 34 µM |
| CCCCn1nc(-c2cc(C)on2)c(N=O)c1C |  |  | MFC | >200 µM |
| Cc1c(Sc2ccccc2)[n+](=O)c2cc(Cl)ccc2n1[O-] | Clinical isolate 14 |  | MIC | 15.6 µg/mL |
| CCC(=O)/C=C1\Sc2ccccc2N1C1CCCCCC1 | ATCC 14053 |  | MIC | 25 µg/mL |
| Oc1ccc2cc1Oc1ccc(cc1)CCc1ccc(c(O)c1)-c1c(O)cccc1CC2 | CA10 | broth dilution | MIC80 | 16 µg/mL |
| C=CCc1ccc(Cn2cc(CN3CCN([C@H](C)[C@](O)(Cn4cncn4)c4ccc(F)cc4F)CC3)c3cccc(F)c32)cc1 | ATCC 64548 | resazurin | MIC80 | 0.125 µg/mL |
| CCCC(O)C/C=C\C=C\C(=O)OC[C@H]1O[C@@H](O[C@@H]2[C@H](OC(=O)/C=C/C=C/CC(O)/C(C)=C/C=C/CCC(C)CC)[C@@H](O)[C@]3(OCc4cc(O)cc(O)c43)O[C@@H]2CO)[C@H](O)[C@@H](O)[C@H]1O | MY1055 |  | MIC | 1 µg/mL |
| CS(=O)(=O)OCC1COC(Cn2ccnc2)(c2ccc(-c3ccccc3)cc2)O1 | 44 strains |  | MIC50 | 64 µg/mL |
| Nn1c(SCC(O)(Cn2cncn2)c2ccc(Cl)cc2Cl)nnc1-c1ccccc1 | IRFC 192 | broth dilution | MIC | >64 µg/mL |
| C[C@@H](N1CCN(Cc2c[nH]c3ccccc23)CC1)[C@](O)(Cn1cncn1)c1ccc(F)cc1F | ATCC 64548 | resazurin | MIC80 | 0.5 µg/mL |
| Nn1c(SCC(O)(Cn2cncn2)c2ccc(Cl)cc2Cl)nnc1-c1ccc(O)cc1 | IRFC 37 | broth dilution | MIC | 64 µg/mL |
| Cc1c(S(=O)(=O)c2ccccc2)[n+](=O)c2ccccc2n1[O-] | Clinical isolate 23 |  | MIC | 15.6 µg/mL |
| OC[C@@H]1CO[C@](Cn2ccnc2)(c2ccc(-c3ccccc3)cc2)O1 | 44 strains |  | MIC90 | 128 µg/mL |
| CCCC(=O)/C=C1\Sc2cc(OC)ccc2N1C1=CCCCCC1 | ATCC 10231 |  | MIC | >100 µg/mL |
| Clc1ccc(C(c2cccc3ccccc23)n2ccnc2)cc1 | 23 strains |  | Mean MIC | 2.64 µg/mL |
| CO[C@@H]1C[C@H](C[C@@H](C)[C@@H]2CC(=O)[C@H](C)/C=C(\C)[C@@H](O)[C@@H](OC)C(=O)[C@H](C)C[C@H](C)/C=C/C=C/C=C(\C)[C@@H](N(OC)C(=O)N(C)C)C[C@@H]3CC[C@@H](C)[C@@](O)(O3)C(=O)C(=O)N3CCCC[C@H]3C(=O)O2)CC[C@H]1C(=O)ON(C)O | 10231 |  | MIC | 50 µg/mL |
| CCC(C)CC(C)CCCCCCCCC(=O)N[C@H]1C[C@@H](O)[C@H](NCCN)NC(=O)[C@@H]2[C@@H](O)CCN2C(=O)[C@H]([C@H](O)CCN)NC(=O)[C@H]([C@H](O)[C@@H](O)c2ccc(O)cc2)NC(=O)[C@@H]2C[C@@H](O)CN2C(=O)[C@H]([C@@H](C)O)NC1=O | 10 strains (fluconazole- itraconazole-susceptible) |  | MFC90 | 1 µg/mL |
| NC(N)=NCCCCCCCCCNCCCCCCCN=C(N)N | 15T |  | MIC50 | 80 µM |
| CCCCCC(Cn1ccnc1)c1ccccc1Br |  |  | MIC | 10 µg/mL |
| COC(=O)[C@H]1[C@@H]2C[C@@H](O[C@@H]3O[C@H](C)[C@@H](O)[C@H](N)[C@@H]3O)/C=C/C=C/C=C/C=C/C=C/C=C/C=C/[C@H](C)[C@@H](O)[C@H](C)[C@H](C)OC(=O)C[C@H](O)C[C@H](O)[C@@H](O)CC[C@H](O)C[C@H](O)C[C@](O)(C[C@@H]1O)O2 |  |  | MFC | 3.1 µM |
| C[C@@H](N1CCN(Cc2cn(Cc3ccc(Cl)cc3Cl)c3cc(Cl)ccc23)CC1)[C@](O)(Cn1cncn1)c1ccc(F)cc1F | ATCC 90028 | resazurin | MIC80 | 0.125 µg/mL |
| CCCCCCC(Cn1ccnc1)c1ccccc1Br |  |  | MIC | 10 µg/mL |
| CC(C)C1C[C@H]2C[C@]3(C=O)[C@@H]4CC[C@@H](C)[C@H]4C[C@@]2(CO[C@H]2CN(C4CC4)C[C@@H](C)O2)[C@]13C(=O)O | CL-245 (fluconazole-resistant) |  | MIC | ≤0.001 µg/mL |
| Nc1[nH]c(=O)ncc1F | 10 isolates azole-resistant |  | MIC50 | 0.16 µg/mL |
| CCCCCCC(Cn1ccnc1)c1ccc(Br)cc1 |  |  | MIC | 10 µg/mL |
| CS(=O)(=O)OC[C@H]1CO[C@](Cn2ccnc2)(c2ccc(-c3ccccc3)cc2)O1 | 44 strains |  | Mean MIC | 198 µg/mL |
| NC(=NCc1ccccc1)NCCCCCCCN1CCCCCCCCN=C(N)NC1=O | 4T |  | MIC50 | 2.5 µM |
| CC(=O)OCC1C=C(c2ccc(Br)cc2)C(=O)O1 | 16 isolates fluconazole-susceptible |  | MIC50 | 1 µg/mL |
| Nn1c(SCC(O)(Cn2cncn2)c2ccc(F)cc2F)nnc1-c1ccncc1 | IRFC 192 | broth dilution | MIC | >64 µg/mL |
| OC(CN1CCN(c2ccc(OCc3ccncc3)cc2)CC1)(Cn1cncn1)c1ccc(F)cc1F | 304046 |  | MIC80 | ≤0.063 µg/mL |
| C[C@@H](N1CCN(Cc2cn(Cc3ccc(Cl)cc3Cl)c3c(Cl)cccc23)CC1)[C@](O)(Cn1cncn1)c1ccc(F)cc1F | ATCC 36082 | resazurin | MIC80 | 0.125 µg/mL |
| CO[C@H]1C[C@@H]2CC[C@@H](C)[C@@](O)(O2)C(=O)C(=O)N2CCCC[C@H]2C(=O)O[C@H]([C@H](C)C[C@@H]2CC[C@@H](C(=O)ON3CCNCC3)[C@H](OC)C2)CC(=O)[C@H](C)/C=C(\C)[C@@H](O)[C@@H](OC)C(=O)[C@H](C)C[C@H](C)CCCC/C=C/1C | 38247 |  | MIC | >100 µg/mL |
| Cc1c(S(=O)(=O)c2ccccc2)[n+](=O)c2cc(Cl)ccc2n1[O-] | Clinical isolate 21 |  | MIC | 15.6 µg/mL |
| CCCCOC[N+](C)(C)Cc1cc(N=Nc2ccc(Cl)cc2)ccc1O |  |  | MIC | 304 µM |
| NC(N)=NCCCCCCCNCCCCCCCCCNC(N)=NCC1CC1 | 4T |  | MIC50 | 10 µM |
| C=C=CCN1C[C@H](OC[C@@]23C[C@@H]4[C@H](C)CC[C@H]4[C@@]4(C=O)C[C@@H]2CC(C(C)C)[C@@]34C(=O)O)O[C@H](C)C1 | 16 isolates/fluconazole resistant |  | MIC90 | 0.06 µg/mL |
| CCC(C)n1ncn(-c2ccc(N3CCN(c4ccc(OC[C@H]5CO[C@](Cn6cncn6)(c6ccc(Cl)cc6Cl)O5)cc4)CC3)cc2)c1=O | AD |  | MIC | 2 µg/mL |
| c1ccc(-c2ccc(C(c3cccc4ccccc34)n3ccnc3)cc2)cc1 | 23 strains |  | MIC90 | >256 µg/mL |
| CCCCCOC[N+](C)(C)Cc1cc(N=Nc2ccc(Cl)cc2)ccc1O |  |  | MBC | 1750 µM |

6 of the rows above, restated:

compound | strain | method | read-out | value
C=CCSS(=O)CC=C | Clinical Isolate 3064 | broth dilution | MIC90 | 3.13 µg/mL
Cc1ccc(N=Nc2ccc(O)c(C[N+](C)(C)COC3CCCCCCC3)c2)cc1 |  |  | MBC | 70 µM
c1ccc(-c2ccc(C(c3cccc4ccccc34)n3ccnc3)cc2)cc1 | 23 strains |  | MIC90 | >256 µg/mL
COc1ccc(-c2nnc(SCC(O)(Cn3cncn3)c3ccc(F)cc3F)n2N)cc1 | ATCC 18804 | broth dilution | MIC | >64 µg/mL
CCOc1cc2c(cc1F)n([O-])c(C)c(S(=O)(=O)c1ccccc1)[n+]2=O | Clinical isolate 24 |  | MIC | 15.6 µg/mL
Nn1c(SCC(O)(Cn2cncn2)c2ccc(Cl)cc2Cl)nnc1-c1cccc(Br)c1 | IRFC 192 | broth dilution | MIC | >64 µg/mL

Neighbouring rows are from separate reports. A number after MIC or MFC names an inhibition level or a share of isolates.